A mixed list of measured activities; the numbers were collected in NIAID ChemDB.

Shared fields: tests in culture; organism: Herpes simplex virus 1

Lines come from different laboratories, so protocols vary.

smiles,strain,cell line,method,endpoint,tested at,value
CCCCCCCCCCCC(=O)OC[C@@H](O)COP(=O)([O-])OCC[N+](C)(C)C,KOS,HeLa,cytopathic effect,EC50,,>200 µg/mL
Nc1nc2c(ncn2COCCO)c(=O)[nH]1,F,VERO,plaque count,EC90,,0.69 µM
CCCCCCCCC#Cc1cn(COCCO)c(=O)[nH]c1=O,F,VERO,plaque count,EC90,,>100 µM
Nc1ncnc2c1ncn2CCOCP(=O)(O)O,KOS PFA-resistant,HEL,cytopathic effect,EC50,,66.7 µg/mL
CCCCCc1ccc(-c2cc3cn(C/C=C/C(O)CO)c(=O)nc3o2)cc1,F,VERO,plaque count,EC90,,>100 µM
Nc1ncnc2c1ncn2C[C@@H](CO)OCP(=O)(O)O,KOS,HeLa,virus yield,EC90,,50 µM
Nc1nc2c(ncn2CCC(CO)CO)c(=O)[nH]1,KOS HPMPA-resistant,HEL,cytopathic effect,EC50,,0.073 µg/mL
O=C(CP(=O)(O)O)O[C@H]1C[C@H](n2cc(CCCl)c(=O)[nH]c2=O)O[C@@H]1CO,BRAND,VERO,cytopathic effect,inhibition,24.2 µM,>25%
CCCCCc1ccc(C#Cc2cn(C/C=C/C(O)CO)c(=O)[nH]c2=O)cc1,F,VERO,plaque count,EC90,,16.2 µM
CC(=O)N[C@H]1[C@@H](O[C@@H]2O[C@H](C[C@@H](O)[C@H]3O[C@@H](n4ccc(=O)[nH]c4=O)[C@H](O)[C@@H]3O)[C@H](O)[C@H](O)[C@H]2NC(=O)/C=C/CC(C)C)O[C@H](CO)[C@@H](O)[C@@H]1O,,Chicken fibroblasts,plaque count,inhibition,0.5 µg/mL,99.89%
CCOC(=O)CP(=O)(OC)OC[C@H]1O[C@@H](n2cc(I)c(=O)[nH]c2=O)C[C@@H]1O,TK-,VERO,cytopathic effect,inhibition,57.9 µM,>25%
O=C(O)P(=O)(O)O,,GMK,plaque count,inhibition,12.5 µg/mL,46.4%
O=c1nc2oc(-c3ccccc3)cc2cn1COCCO,F,VERO,plaque count,EC90,,>100 µM
O=C(O)P(=O)(O)O,KJ502,SIRC,plaque count,inhibition,100 µM,92%
NC(=O)c1cn([C@@H]2C[C@H](CO)C[C@H]2O)nn1,F,VERO,plaque count,EC90,,>100 µM
O=C(O)CP(=O)(O)O,BRAND,VERO,cytopathic effect,inhibition,71.4 µM,>25%
CO[C@@H]1[C@@H](O[C@@H]2O[C@H](C)[C@@H](O[C@H]3C[C@@](C)(O)[C@@H](OC(=O)CC(C)C)[C@H](C)O3)[C@H](N(C)C)[C@H]2O)[C@@H](CC=O)C[C@@H](C)[C@@H](O)/C=C/C=C/C[C@@H](C)OC(=O)C[C@H]1OC(C)=O,KOS,HeLa,cytopathic effect,EC50,,>200 µg/mL
O=c1[nH]c(=O)n([C@H]2C[C@H](O)[C@@H](CO)O2)cc1CCCl,TK-,VERO,cytopathic effect,inhibition,34.2 µM,>25%
O=c1[nH]c(=O)n([C@H]2C[C@H](O)[C@@H](CO)O2)cc1/C=C/Br,KOS S2242-resistant,HEL,cytopathic effect,EC50,,0.005 µg/mL
Nc1ncnc2c1ncn2C[C@@H](CO)OCP(=O)(O)O,C137-101 (TK-),,cytopathic effect,EC50,,1 µg/mL
COC(=O)[C@H]1[C@H](O)[C@@H](C)[C@@H](O)[C@](C)(O)/C=C(\C)C2=C3C(=C(C)C(=O)c4c(O)c(c(C)c(OC(C)=O)c43)NC(=O)/C(C)=C/C=C\[C@@H](C)C(O)[C@@H](C)[C@H]1O)OCO2,,CV,plaque count,inhibition,2.6 µM,0%
NC(=O)c1nnn([C@@H]2C[C@H](CO)C[C@H]2O)c1N,F,VERO,plaque count,EC90,,>100 µM
CC(=O)NC1[C@H](COC[C@@H]2C(CO)O[C@@H](COC[C@@H]3C(CO)O[C@@H](O)C(NC(C)=O)[C@@H]3O)C(NC(C)=O)[C@@H]2O)OC(CO)[C@@H](O)[C@H]1O,KOS,HeLa,cytopathic effect,EC50,,>200 µg/mL
Nc1nc(=O)n([C@@H]2O[C@H](CO)[C@@H](O)[C@@H]2F)cc1I,KOS PMEA-resistant,HEL,cytopathic effect,EC50,,0.01 µg/mL
OC[C@@H](O)C(O)[C@@H](O)CO,KOS,HeLa,cytopathic effect,EC50,,>200 µg/mL
CCCCCCCCc1cc2cn(CC=C(CO)CO)c(=O)nc2o1,F,VERO,plaque count,EC90,,53.8 µM
Nc1nc2c(ncn2COC(CO)CO)c(=O)[nH]1,KOS PFA-resistant,HEL,cytopathic effect,EC50,,0.002 µg/mL
CCC(=O)O[C@@H]1CC(=O)O[C@H](C)C/C=C/C=C/[C@H](O)[C@H](C)C[C@H](CC=O)[C@H](O[C@@H]2O[C@H](C)[C@@H](O[C@H]3C[C@@](C)(O)[C@@H](OC(=O)CC(C)C)[C@H](C)O3)[C@H](N(C)C)[C@H]2O)[C@H]1OC,KOS,HeLa,cytopathic effect,EC50,,>200 µg/mL
CCOC(=O)C(C)(C)Oc1ccc(Cl)cc1,TYLER,HeLa,virus yield,inhibition,800 µM,94%
Nc1nc(N)c2ncn(CCOCP(=O)(O)O)c2n1,KOS HPMPC-resistant,HEL,cytopathic effect,EC50,,2.1 µg/mL
Nc1nc2c(ncn2COCCOP(=O)(O)C(=O)O)c(=O)[nH]1,L2,VERO,cytopathic effect,EC95,,71.4 µM
Nc1ncnc2c1ncn2CCOCP(=O)(O)O,PFA-resistant-1,HeLa,virus yield,EC90,,520 µM
Nc1nc2c(ncn2COCCO)c(=O)[nH]1,TK-,VERO,cytopathic effect,inhibition,44 µM,>25%
Nc1ncnc2c1ncn2[C@@H]1O[C@H](CO)C[C@@H]1O,KOS,U138-MG,cytopathic effect,EC50,,8.75 µg/mL

The first 4 rows once more:

smiles	strain	cell line	method	endpoint	tested at	value
CCCCCCCCCCCC(=O)OC[C@@H](O)COP(=O)([O-])OCC[N+](C)(C)C	KOS	HeLa	cytopathic effect	EC50		>200 µg/mL
Nc1nc2c(ncn2COCCO)c(=O)[nH]1	F	VERO	plaque count	EC90		0.69 µM
CCCCCCCCC#Cc1cn(COCCO)c(=O)[nH]c1=O	F	VERO	plaque count	EC90		>100 µM
Nc1ncnc2c1ncn2CCOCP(=O)(O)O	KOS PFA-resistant	HEL	cytopathic effect	EC50		66.7 µg/mL

Inhibition is in % at the dose shown (toxicity tests: loss of growth or viability). ECn: concentration that inhibits the pathogen or its effect by n%. Blank or dashed fields: not listed here.